PubChem BioAssay AID504761 | Drosophila RNAi Screening Center | 2011
Assay: 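Genome-wide fly cell screen for genes dengue virus requires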 (primary screen). Cell system: D.Mel-2 cells from Drosophila. Knock-down reagent: long dsRNA against Drosophila genes. Conditions: infection with dengue virus type 2; dose and infection time not stated. Measured: 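Per well on two replicate plates, imaging gave the percent of cells positive for viral envelope protein, ranked by infection, and a nuclear count of cells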. Direction: infection score: higher = more virus-infected cells; cell count: higher = more cells in the well. Rule for the call: 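Low infection ranks in the two replicates (chance level up to 0.065) followed by a retest with a 1.5-fold or larger significant decrease, p below 0.05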. Calls: active = confirmed: knock-down lowers infection; inactive = not picked or not confirmed.
The deposit covers about 22,000 reagents; below is an unselected part of those that have a named target and a result. Of all reagents, 116 (0.52%) got an active call. 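Calls depend on retest data that are not deposited; infection was ranked per plate without normalising between plates; the unit of the infection score is not given.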 Raw values are not corrected between plates. Not given: the amount of reagent, the time to read-out.

target	dsRNA	infection score, replicate 1	infection score, replicate 2	cell count, replicate 1	cell count, replicate 2	Call
CG11109	DRSC11633	2.83	1.83	6464	6950	inactive
CG30378	DRSC05071	2.14	1.88	6015	5737	inactive
CG13073	DRSC09956	2.43	18.3	6207	5799	inactive
CG13073	DRSC24693	6.66	16.3	5807	4499	inactive
grnd	DRSC02020	7.37	5.58	2591	6178	inactive
CG16736	DRSC15145	6.71	9.02	6961	7059	inactive
Alp9	DRSC10486	5.8	5.12	6498	6519	inactive
CG31900 (retired record)	DRSC21835	4.86	2.6	6381	6501	inactive
CG13032	DRSC09912	2.6	2.29	6382	6649	inactive
Asx	DRSC23408	2.92	8.59	6002	6054	inactive
FASN2	DRSC00167	4.54	5.07	5721	5754	inactive
FASN2	DRSC00610	1.4	1.4	6017	6505	inactive
Hs3st-B	DRSC20067	2.05	0.03	6039	6473	inactive
Tre1	DRSC18726	10.3	9.24	6161	5854	inactive
Tre1	DRSC28244	7.11	8.79	5713	1730	inactive
Dscam2	DRSC10198	2.27	1.02	6246	6159	inactive
Dscam2	DRSC11018	0.7	0.35	5889	5697	inactive
Dscam2	DRSC11019	2.43	1.11	5929	6041	inactive
Dscam2	DRSC22526	12.5	1.58	6150	6577	inactive
Dscam2	DRSC28220	11.3	11.4	4488	1614	inactive
CG1324	DRSC20496	4.49	2.83	6030	5579	inactive
CG1324	DRSC25582	7.2	4.97	6219	5759	inactive
Nup107	DRSC01999	24.2	29.2	2452	2556	inactive

In a second layout: 2 of the entries above.
{"target": "grnd", "dsRNA": "DRSC02020", "infection score, replicate 1": 7.37, "infection score, replicate 2": 5.58, "cell count, replicate 1": 2591, "cell count, replicate 2": 6178, "Call": "inactive"}
{"target": "CG16736", "dsRNA": "DRSC15145", "infection score, replicate 1": 6.71, "infection score, replicate 2": 9.02, "cell count, replicate 1": 6961, "cell count, replicate 2": 7059, "Call": "inactive"}
